Measured values from several laboratories, pooled; numbers as filed in NIAID ChemDB.

Shared fields: tests in culture; agent: HIV-1; cell line: CEM; read by: syncytia; endpoint: fold resistance

Fold resistance: result on the changed form divided by that on wild type. Conditions beyond the fields shown may differ between rows.

{"compound": "CC(C)Nc1cccnc1N1CCN(C(=O)c2cc3ccccc3[nH]2)CC1", "changes": "RT-C181I", "strain or isolate": "IIIB", "result": ">187.5"}
{"compound": "Cc1occc1C(=S)Nc1ccc(Cl)c(C(=O)OC2CCCC2)c1", "changes": "RT-E138K", "strain or isolate": "IIIB", "result": "7"}
{"compound": "CCN1C(=O)N(Cc2ccccc2)S(=O)(=O)c2cscc21", "changes": "RT-V106A", "strain or isolate": "IIIB", "result": ">207"}
{"compound": "CCn1c(=O)c(C)cn([C@@H]2O[C@H](CO[Si](C)(C)C(C)(C)C)C3(OS(=O)(=O)C=C3N)[C@H]2O[Si](C)(C)C(C)(C)C)c1=O", "changes": "RT-E138K", "strain or isolate": "IIIB", "result": ">833"}
{"compound": "C#CCN1C(=O)N(Cc2ccccc2)S(=O)(=O)c2cscc21", "changes": "RT-K103N", "strain or isolate": "IIIB", "result": ">11.8"}
{"compound": "CCNc1cccnc1N1CCN(C(=O)c2cc3cc(OC)ccc3[nH]2)CC1", "changes": "RT-L100I", "strain or isolate": "IIIB-TIBO(0.5)(RT-L100I)", "result": "65"}
{"compound": "Nc1ccn([C@H]2CC[C@@H](CO)O2)c(=O)n1", "changes": "RT-L100I Y181C", "strain or isolate": "IIIB TIBO R82913 STR-1 (RT L100I Y181C)", "result": "0.8"}
{"compound": "Cc1cn([C@@H]2O[C@H](CO[Si](C)(C)C(C)(C)C)C3(OS(=O)(=O)C=C3N)[C@H]2O[Si](C)(C)C(C)(C)C)c(=O)n(C)c1=O", "changes": "RT-V106A", "strain or isolate": "Quin-0.02(RT-V106A)", "result": "27.5"}
{"compound": "O=c1[nH]cnc2c1ncn2[C@H]1CC[C@@H](CO)O1", "changes": "RT-E138K", "strain or isolate": "IIIB", "result": "2.4"}
{"compound": "Cc1occc1C(=S)Nc1ccc(Cl)c(/C=N/OC(C)(C)C)c1", "changes": "RT-L100I", "strain or isolate": "IIIB", "result": "1.7"}
{"compound": "Cc1occc1C(=S)Nc1ccc(Cl)c(/C=N/OC(C)(C)C)c1", "changes": "RT-E138K", "strain or isolate": "IIIB", "result": "9.09"}
{"compound": "CC(C)=CCN1Cc2cc(Cl)cc3[nH]c(=S)n(c23)C[C@@H]1C", "changes": "RT-L100I Y188H", "strain or isolate": "IIIB TIBO R82913 STR-B22 (RT L100I Y188H)", "result": ">250"}
{"compound": "O=C1N(Cc2ccccc2)c2cscc2S(=O)(=O)N1Cc1ccccc1", "changes": "RT-K103N", "strain or isolate": "IIIB", "result": ">5.56"}
{"compound": "CCN1C(=O)N(Cc2cccc(Cl)c2)S(=O)(=O)c2cscc21", "changes": "RT-K103N", "result": ">50.9"}
{"compound": "CC(C)=CCOc1cc(NC(=S)c2ccoc2C)ccc1Cl", "changes": "RT-V179D", "strain or isolate": "IIIB", "result": "3.33"}
{"compound": "N#CCN1C(=O)N(Cc2ccccc2)S(=O)(=O)c2cscc21", "changes": "RT-E138K", "result": "6"}
{"compound": "CC(C)Nc1cccnc1N1CCN(C(=O)c2cc3ccccc3[nH]2)CC1", "changes": "RT-L100I", "strain or isolate": "TIBO-1(RT-L100I)", "result": "40"}
{"compound": "Cc1cn([C@@H]2O[C@H](CO[Si](C)(C)C(C)(C)C)[C@@]3(OS(=O)(=O)C=C3N)[C@H]2O[Si](C)(C)C(C)(C)C)c(=O)[nH]c1=O", "changes": "RT-L100I", "strain or isolate": "IIIB TIBO R82150-resistant (RT L100I)", "result": "7"}
{"compound": "C[C@H](Cn1cnc2c(N)ncnc21)OCP(=O)(O)O", "changes": "RT-A62V V75I F77L Q151M M184V", "strain or isolate": "Clinical isolate HA20.17", "result": "15.8"}
{"compound": "CCN1C(=O)N(Cc2ccccc2)S(=O)(=O)c2cscc21", "changes": "RT-L100I", "result": "3.64"}
{"compound": "Cc1cn([C@@H]2O[C@H](CO[Si](C)(C)C(C)(C)C)C3(OS(=O)(=O)C=C3N)[C@H]2O[Si](C)(C)C(C)(C)C)c(=O)n(C)c1=O", "changes": "RT-C181I", "strain or isolate": "IIIB", "result": ">600"}
{"compound": "Nc1ncnc2c1ncn2CCOCP(=O)(O)O", "changes": "RT-Y181C", "strain or isolate": "IIIB nevirapine-resistant (RT Y181C)", "result": "3.57"}
{"compound": "CCOCn1c(Cc2ccccc2)c(CC)c(=O)[nH]c1=O", "changes": "RT-Y181C", "strain or isolate": "IIIB E-EBU(RT-Y181C)", "result": "≥5000"}
{"compound": "C=C(C)OC(=O)N1c2cc(Cl)ccc2NC(=S)C1(C)C", "changes": "RT-Y181C", "strain or isolate": "Pyr(RT-Y181C)", "result": "10.4"}
{"compound": "CN1C(=O)N(Cc2ccccc2)S(=O)(=O)c2cscc21", "changes": "RT-V106A", "strain or isolate": "IIIB", "result": ">141"}
{"compound": "Cc1cn([C@@H]2O[C@H](CO[Si](C)(C)C(C)(C)C)C3(OS(=O)(=O)C=C3N)[C@H]2O[Si](C)(C)C(C)(C)C)c(=O)n(C)c1=O", "changes": "RT-Y181C", "strain or isolate": "IIIB-Nevirapine(0.1)(RT-Y181C)", "result": "26"}
{"compound": "Cc1cn([C@@H]2O[C@H](CO[Si](C)(C)C(C)(C)C)[C@@]3(OS(=O)(=O)C=C3N)[C@H]2O[Si](C)(C)C(C)(C)C)c(=O)[nH]c1=O", "changes": "RT-E138K", "strain or isolate": "IIIB", "result": "92"}
{"compound": "C[C@H](COc1cc(N)nc(N)n1)OCP(=O)(O)O", "changes": "RT-S68G K70T V75I F77L K103N F116Y Q151M K219R", "strain or isolate": "Clinical isolate L6.5", "result": "10.8"}
{"compound": "Cc1cn([C@H]2C[C@H](N=[N+]=[N-])[C@@H](CO)O2)c(=O)[nH]c1=O", "changes": "RT-L100I Y181C", "strain or isolate": "IIIB TIBO R82913 STR-1 (RT L100I Y181C)", "result": "3"}
{"compound": "Nc1ncnc2c1ncn2CCOCP(=O)(O)O", "changes": "RT-M41L D67N V118I M184V L210W T215Y", "strain or isolate": "Clinical isolate C20", "result": "16.6"}
{"compound": "Cc1cn([C@H]2C[C@H](N=[N+]=[N-])[C@@H](CO)O2)c(=O)[nH]c1=O", "changes": "RT-V179N", "strain or isolate": "IIIB-Pyridinone(0.1)(RT-V179N", "result": "2"}
{"compound": "Cc1c(N)nc(N)nc1OCCOCP(=O)(O)O", "changes": "RT-K65R S68G T69I V75T Q151M", "strain or isolate": "Clinical isolate DE434.4", "result": "16.1"}
{"compound": "O=c1[nH]cnc2c1ncn2[C@H]1CC[C@@H](CO)O1", "changes": "RT-L100I", "strain or isolate": "IIIB TIBO R82150-resistant (RT L100I)", "result": "3"}
{"compound": "CCNc1cccnc1N1CCN(C(=O)c2cc3cc(OC)ccc3[nH]2)CC1", "changes": "RT-Y181C", "strain or isolate": "IIIB E-EBU(RT-Y181C)", "result": "450"}
{"compound": "CCOCn1c(Cc2ccccc2)c(C(C)C)c(=O)[nH]c1=O", "changes": "RT-K103N", "strain or isolate": "IIIB", "result": "380"}
{"compound": "O=C1N(Cc2ccccc2)c2cscc2S(=O)(=O)N1Cc1ccccc1", "changes": "RT-Y188H", "result": "4.33"}
{"compound": "Cc1cn([C@@H]2O[C@H](CO[Si](C)(C)C(C)(C)C)C3(OS(=O)(=O)C=C3N)[C@H]2O[Si](C)(C)C(C)(C)C)c(=O)n(C)c1=O", "changes": "RT-L100I", "strain or isolate": "IIIB BHAP(RT-L100I)", "result": "1.33"}
{"compound": "CC(C)=CCOc1cc(NC(=S)c2ccsc2C)ccc1Cl", "changes": "RT-V106A", "strain or isolate": "IIIB", "result": "13.89"}
{"compound": "CC(C)=CCN1Cc2cc(Cl)cc3[nH]c(=S)n(c23)C[C@@H]1C", "changes": "RT-Y181C", "strain or isolate": "IIIB E-EBU(RT-Y181C)", "result": "≥250"}
{"compound": "Cc1ccnc2c1NC(=O)c1cccnc1N2C1CC1", "changes": "RT-E138K", "strain or isolate": "IIIB", "result": "0.667"}
{"compound": "Cc1cn([C@@H]2O[C@H](CO[Si](C)(C)C(C)(C)C)C3(OS(=O)(=O)C=C3N)[C@H]2O[Si](C)(C)C(C)(C)C)c(=O)n(C)c1=O", "changes": "RT-V106A", "strain or isolate": "IIIB", "result": "91.7"}
{"compound": "CCn1c(=O)c(C)cn([C@@H]2O[C@H](CO[Si](C)(C)C(C)(C)C)C3(OS(=O)(=O)C=C3N)[C@H]2O[Si](C)(C)C(C)(C)C)c1=O", "changes": "RT-Y188H", "strain or isolate": "IIIB HEPT-resistant (RT Y188H)", "result": ">833"}

For reference, 6 entries again:

compound | changes | strain or isolate | result
CC(C)=CCN1Cc2cc(Cl)cc3[nH]c(=S)n(c23)C[C@@H]1C | RT-Y181C | IIIB E-EBU(RT-Y181C) | ≥250
CC(C)=CCN1Cc2cc(Cl)cc3[nH]c(=S)n(c23)C[C@@H]1C | RT-L100I Y188H | IIIB TIBO R82913 STR-B22 (RT L100I Y188H) | >250
Cc1cn([C@@H]2O[C@H](CO[Si](C)(C)C(C)(C)C)C3(OS(=O)(=O)C=C3N)[C@H]2O[Si](C)(C)C(C)(C)C)c(=O)n(C)c1=O | RT-Y181C | IIIB-Nevirapine(0.1)(RT-Y181C) | 26
Cc1cn([C@H]2C[C@H](N=[N+]=[N-])[C@@H](CO)O2)c(=O)[nH]c1=O | RT-V179N | IIIB-Pyridinone(0.1)(RT-V179N | 2
Cc1occc1C(=S)Nc1ccc(Cl)c(C(=O)OC2CCCC2)c1 | RT-E138K | IIIB | 7
Cc1c(N)nc(N)nc1OCCOCP(=O)(O)O | RT-K65R S68G T69I V75T Q151M | Clinical isolate DE434.4 | 16.1